Tested on: HIV-1 (IIIB strain)
Assay: Anti-HIV-1 assay: inhibition of virus-induced cytopathicity in acutely infected MT-4 cells (MTT)
Assay type: cell-based
Conditions: for SI: selectivity index, CC50/EC50 ratio: CC50 (mock-infected cells) / EC50 (HIV-1 in MT-4 cells)
Description: Compounds. Compounds were solubilized in DMSO at 200 mM and then diluted into culture medium.
Cells and viruses. MT-4, C8166, H9/IIIB and CEM cells were grown at 37° C. in a 5% CO2 atmosphere in RPMI 1640 medium, supplemented with 10% fetal calf serum (FCS), 100 UI/mL penicillin and 100 μg/mL streptomycin. Cell cultures were checked periodically for the absence of mycoplasma contamination with a MycoTect Kit (Gibco). Human immunodeficiency virus type-1 (HIV-1, IIIB strain) was obtained from supernatants of persistently infected H9/IIIB cells.
Anti-HIV assays. Activity of the compounds against HIV-1 and HIV-2 multiplication in acutely infected cells was based on the inhibition of virus-induced cytopathicity in MT-4 and C8166 cells, respectively. Briefly, 50 μL of culture medium containing 1×10^4 cells were added to each well of flat-bottom microtiter trays containing 50 μl of culture medium with or without various concentrations of the test compounds. Then 20 μL of an HIV suspension containing 100 CCID50 were added. After a 4-day incubation at 37° C., the number of viable cells was determined by the 3-(4,5-dimethylthiazol-[…])-2,5-diphenyltetrazolium bromide (MTT) method. Cytotoxicity of the compounds was evaluated in parallel with their antiviral activity. It was based on the viability of mock-infected cells, as monitored by the MTT method.

Compound	SI (selectivity index, CC50/EC50 ratio)	SI: selectivity index, CC50/EC50 ratio
CCCCSc1nc(Cc2c(F)cccc2F)cc(=O)[nH]1 [MC 872]	900	–
CCC(C)Sc1nc(Cc2ccc([N+](=O)[O-])cc2)c(C)c(=O)[nH]1 (stereo not drawn) [MC 924]	>100	–
CCC(C)Sc1nc(Cc2c(Cl)cccc2Cl)cc(=O)[nH]1 (stereo not drawn) [MC 815]	>1,428	–
CC(C)Sc1nc(C(C)c2ccccc2)cc(=O)[nH]1 (racemic) [MC 890]	>222	–
O=c1cc(Cc2c(F)cccc2F)nc(N2CCCCC2)[nH]1 [MC 1194]	–	>10,000
CCC(C)Sc1nc(Cc2cccc(F)c2)cc(=O)[nH]1 (racemic) [MC 884]	>286	–
CCC(C)Sc1nc(Cc2ccccc2C)cc(=O)[nH]1 (racemic) [MC 806]	>111	–
CCCCSc1nc(C(C)c2c(F)cccc2F)c(C)c(=O)[nH]1 (racemic) [MC 1175]	–	14,000
CC(C)CSc1nc(Cc2c(Cl)cccc2Cl)cc(=O)[nH]1 [MC 885]	>444	–
CCC(C)Nc1nc(Cc2c(F)cccc2F)cc(=O)[nH]1 (stereo not drawn) [MC 945]	>1,540	–
CC(c1ccccc1)c1cc(=O)[nH]c(SC2CCCC2)n1 (racemic) [MC 892]	333	–
Cc1c(Cc2c(F)cccc2F)nc(N(C)C)[nH]c1=O [MC 1195]	–	>10,000
Cc1c(Cc2c(Cl)cccc2Cl)nc(SC2CCCC2)[nH]c1=O [MC 915]	>111	–
O=c1cc(Cc2ccccc2)nc(SCOCc2ccccc2)[nH]1 [MC 843]	>4	–
CC(C)Sc1nc(Cc2c(F)cccc2F)c(C(C)C)c(=O)[nH]1 [MC 1039]	>500	–
CCC(C)Sc1nc(Cc2ccc([N+](=O)[O-])cc2)cc(=O)[nH]1 (racemic) [MC 863]	101	–
CCC(C)Sc1nc(Cc2ccccc2[N+](=O)[O-])cc(=O)[nH]1 (racemic) [MC 817]	>800	–

Compound	SI (selectivity index, CC50/EC50 ratio)	SI: selectivity index, CC50/EC50 ratio
CCC(C)Sc1nc(Cc2ccccc2C)c(C)c(=O)[nH]1 (stereo not drawn) [MC 844]	>118	–
Cc1c(C(C)c2c(F)cccc2F)nc(NC2CCCCC2)[nH]c1=O (racemic) [MC 1181]	–	2,231
O=c1cc(Cc2c(F)cccc2F)nc(N2CCSCC2)[nH]1 [MC 1193]	–	>4,000
Cc1c(Cc2c(F)cccc2F)nc(SC2CCCCC2)[nH]c1=O [MC 923]	>2,222	–
CCC(C)Sc1nc(Cc2ccc(Cl)cc2)cc(=O)[nH]1 (racemic) [MC 859]	24	–
Cc1c(C(C)c2c(F)cccc2F)nc(SC2CCCCC2)[nH]c1=O (racemic) [MC 1174]	–	>11,111
CC(C)CSc1nc(C(C)c2c(F)cccc2F)cc(=O)[nH]1 (stereo not drawn) [MC 1044]	>4,000	–
CC(c1cc(=O)[nH]c(SC2CCCC2)n1)c1c(F)cccc1F (stereo not drawn) [MC 1008]	>6,666	–
CCCCNc1nc(C(C)c2c(F)cccc2F)c(C)c(=O)[nH]1 (racemic) [MC 1187]	–	8,300
Cc1c(Cc2ccccc2)nc(OC2CC(C)CCC2C)[nH]c1=O (mixture of isomers) [MC 531]	39	–
CCC(C)Oc1nc(Cc2c(F)cccc2F)cc(=O)[nH]1 (racemic) [MC 1114]	52	–
CC(c1cc(=O)[nH]c(SC2CCCC2)n1)c1c(Cl)cccc1Cl (stereo not drawn) [MC 996]	78.3	–
CC(C)CSc1nc(Cc2c(F)cccc2F)cc(=O)[nH]1 [MC 866]	1,300	–
CCc1c(Cc2c(F)cccc2F)nc(SCSC)[nH]c1=O [MC 1157]	–	454
CC(C)Nc1nc(Cc2c(F)cccc2F)cc(=O)[nH]1 [MC 979]	>526	–
CNc1nc(Cc2c(F)cccc2F)cc(=O)[nH]1 [MC 1167]	>133	–

Reference: patent US6635636B1, “Substituted 6-benzyl-4-oxopyrimidines, process for their preparation and pharmaceutical compositions containing them” (Idenix Pharmaceuticals, Inc., priority 1998, dated 2003)
